Laboratory results: PubChem BioAssay AID1259414 (Drosophila RNAi Screening Center, 2018)
The deposit covers about 24,000 reagents; this is a random part of those that have a named target and a result. In the full data, about 1,210 (5%) got an active call. 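Inactive calls also include excluded dsRNAs with several or no targets, genes unexpressed in JW18, and well A1, regardless of score.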 A number with no mark means an inactive call. The numbers tell different reagents against one gene apart.

Screen: 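Fly genes that alter Wolbachia amount inside host cells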 (primary screen)
Cells: Drosophila JW18 cells infected with Wolbachia
Reagents: long dsRNA against Drosophila genes, 0.25 µg dsRNA per well of a 384-well plate
Timing: 5 days
Challenge: cells persistently infected with Wolbachia before knock-down; no added drug
Measurement: 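Automated imaging of bacterial rRNA staining divided by host cell count, reported as plate-normalised robust z-score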
Reading the numbers: Wolbachia per cell robust z: higher = more Wolbachia per host cell than the plate typical
Rule for the call: 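Active if absolute robust z reaches 1.5 in two or more of three replicates, leaving out multi- or no-target dsRNAs, genes unexpressed in JW18 and A1 wells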

Fer1HCH (GeneID 46415) #1
- Wolbachia per cell robust z, rep 1: 1.02
- Wolbachia per cell robust z, rep 2: 1.01
- Wolbachia per cell robust z, rep 3: 1.3

Fer1HCH (GeneID 46415) #2
- Wolbachia per cell robust z, rep 1: 0.334
- Wolbachia per cell robust z, rep 2: -0.277
- Wolbachia per cell robust z, rep 3: 0.767

CG10734 (GeneID 36787)
- Wolbachia per cell robust z, rep 1: 0.474
- Wolbachia per cell robust z, rep 2: 0.984
- Wolbachia per cell robust z, rep 3: -2.09

Flo2 (GeneID 32425) #1
- Wolbachia per cell robust z, rep 1: 0.595
- Wolbachia per cell robust z, rep 2: 0.554
- Wolbachia per cell robust z, rep 3: 0.418

Flo2 (GeneID 32425) #2
- Wolbachia per cell robust z, rep 1: -0.34
- Wolbachia per cell robust z, rep 2: -0.171
- Wolbachia per cell robust z, rep 3: -1.27

Caf1-180 (GeneID 31801) #1
- Wolbachia per cell robust z, rep 1: 1.69
- Wolbachia per cell robust z, rep 2: 0.822
- Wolbachia per cell robust z, rep 3: -0.28

Caf1-180 (GeneID 31801) #2
- Wolbachia per cell robust z, rep 1: 1.12
- Wolbachia per cell robust z, rep 2: 1.23
- Wolbachia per cell robust z, rep 3: 2.47

CG10226 (GeneID 38725)
- Wolbachia per cell robust z, rep 1: -0.0109
- Wolbachia per cell robust z, rep 2: 1.11
- Wolbachia per cell robust z, rep 3: 0.422

CG4161 (GeneID 34907) #1
- Wolbachia per cell robust z, rep 1: -0.404
- Wolbachia per cell robust z, rep 2: -0.174
- Wolbachia per cell robust z, rep 3: 0.526

CG4161 (GeneID 34907) #2
- Wolbachia per cell robust z, rep 1: 0.47
- Wolbachia per cell robust z, rep 2: -0.156
- Wolbachia per cell robust z, rep 3: -0.959

ocm (GeneID 37874) #1
- Wolbachia per cell robust z, rep 1: -0.302
- Wolbachia per cell robust z, rep 2: 0.19
- Wolbachia per cell robust z, rep 3: -2.66

ocm (GeneID 37874) #2
- Wolbachia per cell robust z, rep 1: 0.821
- Wolbachia per cell robust z, rep 2: -1.58
- Wolbachia per cell robust z, rep 3: 0.976

MESR4 (GeneID 36986)
- Wolbachia per cell robust z, rep 1: -1.9 (active)
- Wolbachia per cell robust z, rep 2: -2.62
- Wolbachia per cell robust z, rep 3: 1.37

Cyp6t2Psi (GeneID 3772355) #1
- Wolbachia per cell robust z, rep 1: -0.17
- Wolbachia per cell robust z, rep 2: 0.0205
- Wolbachia per cell robust z, rep 3: -0.285

Cyp6t2Psi (GeneID 3772355) #2
- Wolbachia per cell robust z, rep 1: -1.05
- Wolbachia per cell robust z, rep 2: 0.287
- Wolbachia per cell robust z, rep 3: -7.43

whd (GeneID 36109)
- Wolbachia per cell robust z, rep 1: 0.00387
- Wolbachia per cell robust z, rep 2: 0.616
- Wolbachia per cell robust z, rep 3: 0.0218

CG3841 (GeneID 34278)
- Wolbachia per cell robust z, rep 1: 0.141
- Wolbachia per cell robust z, rep 2: -0.449
- Wolbachia per cell robust z, rep 3: -0.382

CG13671 (GeneID 38932)
- Wolbachia per cell robust z, rep 1: -3.01
- Wolbachia per cell robust z, rep 2: -0.747
- Wolbachia per cell robust z, rep 3: -0.214

CG30466 (GeneID 246629)
- Wolbachia per cell robust z, rep 1: 0.16
- Wolbachia per cell robust z, rep 2: 0.166
- Wolbachia per cell robust z, rep 3: 0.255

topi (GeneID 41199)
- Wolbachia per cell robust z, rep 1: 0.0494
- Wolbachia per cell robust z, rep 2: -2.45
- Wolbachia per cell robust z, rep 3: 0.3

Or98P (GeneID 3772262) #1
- Wolbachia per cell robust z, rep 1: -0.38
- Wolbachia per cell robust z, rep 2: 0.712
- Wolbachia per cell robust z, rep 3: 0.402

Or98P (GeneID 3772262) #2
- Wolbachia per cell robust z, rep 1: -1.09
- Wolbachia per cell robust z, rep 2: -1.85
- Wolbachia per cell robust z, rep 3: -0.406

RpL6 (GeneID 43723) #1
- Wolbachia per cell robust z, rep 1: 0.479
- Wolbachia per cell robust z, rep 2: -2.97
- Wolbachia per cell robust z, rep 3: 0.652

RpL6 (GeneID 43723) #2
- Wolbachia per cell robust z, rep 1: 1.55
- Wolbachia per cell robust z, rep 2: 1.42
- Wolbachia per cell robust z, rep 3: 0.452

RpL6 (GeneID 43723) #3
- Wolbachia per cell robust z, rep 1: 2.34 (active)
- Wolbachia per cell robust z, rep 2: 3.38
- Wolbachia per cell robust z, rep 3: 3.37
